A mixed list of measured activities; the numbers were collected in NIAID ChemDB.

Shared fields: whole-cell or culture tests; species: Candida albicans; endpoint: MIC

Two numbers with a dash give a range or band. Neighbouring rows are from separate reports.

| compound | strain or isolate | value |
|---|---|---|
| CCC(C)n1ncn(-c2ccc(N3CCN(c4ccc(OC[C@H]5CO[C@](Cn6cncn6)(c6ccc(Cl)cc6Cl)O5)cc4)CC3)cc2)c1=O | Isolate CA-7 | >8 µg/mL |
| COc1ccc2c(Cc3ccc(C(C)(C)C)cc3)c3[n+](cc2c1OC)CCc1cc2c(cc1-3)OCO2 | ATCC62342 | 3.13 µg/mL |
| Nc1ncnc2c1ncn2[C@@H]1O[C@H](C(=O)O)[C@@H](NC(=O)C(N)Cc2cccs2)[C@H]1O | FP633 | 1.6 µg/mL |
| CCCCCOc1ccc(-c2ccc(-c3ccc(C(=O)N[C@H]4CCCNC(=O)C5[C@H](N)CN5C(=O)C(C(C)O)NC(=O)C(CCc5ccc(O)cc5)NC(=O)C5C[C@@H](O)CN5C(=O)C(C(C)O)NC4=O)cc3)cc2)cc1 | ATCC 10231 | 0.78 µg/mL |
| Fc1ccc(CCCCn2c3c(c4cc(F)ccc42)CNCC3)cc1 | ATCC 10231 | 3.12–6.25 µg/mL |
| CCC(C)n1ncn(-c2ccc(N3CCN(c4ccc(OC[C@H]5CO[C@](Cn6cncn6)(c6ccc(Cl)cc6Cl)O5)cc4)CC3)cc2)c1=O | KB | >4 µg/mL |
| CCCCCOc1ccc(-c2ccc(-c3ccc(C(=O)N[C@H]4CCCNC(=O)C5C[C@H](N)CN5C(=O)C(CN)NC(=O)C(CCc5ccc(O)cc5)NC(=O)C5C[C@@H](O)CN5C(=O)C(C(C)O)NC4=O)cc3)cc2)cc1 | ATCC 62376 | 1.56 µg/mL |
| COc1ccc2c(C)c(C(=O)c3ccccc3)oc2c1 | NRRL Y-27077 | 25 µg/mL |
| CC(C)(C)c1ccc(COC(Cn2ccnc2)c2ccc(Cl)cc2)cc1 | 3M | 128 µg/mL |
| Nc1ncnc2c1ncn2[C@@H]1O[C@H](C(=O)O)[C@@H](NC(=O)C(N)CSCc2ccc(Cl)cc2)[C@H]1O | FP633 | 0.2 µg/mL |
| CCCCCOc1ccc(-c2ccc(-c3ccc(C(=O)N[C@H]4CCCNC(=O)C5C[C@H](NC(=O)CC)CN5C(=O)C(C(C)O)NC(=O)C(CCc5ccc(O)cc5)NC(=O)C5C[C@@H](O)CN5C(=O)C(C(C)O)NC4=O)cc3)cc2)cc1 | ATCC 62376 | 0.39 µg/mL |
| N=C(N)c1ccc2nc(-c3ccc(-c4nc5ccc(C(=N)N)cc5[nH]4)[nH]3)[nH]c2c1 | Isolate CA783 | 0.78 µg/mL |
| Cc1c(/C(=N/O)c2ccc(Cl)cc2)oc2ccc(Cl)cc12 | NRRL Y-27077 | 5 µg/mL |
| Nc1ncnc2c1ncn2[C@@H]1O[C@H](C(=O)O)[C@@H](NC(=O)[C@H](N)CSCC2CC2)[C@H]1O | FP633 | 3.1 µg/mL |
| Cc1ccc(C(C)C)cc1O | ATCC 10231 | 0.16 µg/mL |
| CCCCCCCCCCCCOc1ccc(-c2ccc(C(=O)N[C@H]3CCCNC(=O)C4C[C@H](N)CN4C(=O)C(C(C)O)NC(=O)C(CCc4ccc(O)cc4)NC(=O)C4C[C@@H](O)CN4C(=O)C(C(C)O)NC3=O)cc2)cc1 | ATCC CCH442 | 0.2 µg/mL |
| O=C(c1ccccc1)c1oc2ccccc2c1Cn1ccnc1 | NRRL Y-27077 | 25 µg/mL |
| c1ccc(-c2ccc(COC(Cn3ccnc3)c3ccccc3)cc2)cc1 | CA7 | >128 µg/mL |
| CNc1ncnc2c1ncn2[C@@H]1O[C@H](C(=O)O)[C@@H](NC(=O)[C@@H](N)Cc2ccc(OC)cc2)[C@H]1O | FP633 | >100 µg/mL |
| O=C(c1ccccc1)c1oc2ccc(Cl)cc2c1Cn1ccnc1 | NRRL Y-27077 | 25 µg/mL |
| C[C@H]1[C@H](O)[C@@H](C)/C=C/C=C/C=C/C=C/C=C/C=C/C=C/[C@H](O[C@@H]2O[C@H](C)[C@@H](O)[C@H](N)[C@@H]2O)C[C@@H]2O[C@](O)(C[C@@H](O)C[C@@H](O)CC[C@H](O)[C@@H](O)C[C@@H](O)CC(=O)O[C@H]1C)C[C@H](O)[C@H]2C(=O)O | R89-335 | 0.25 µg/mL |
| O=C(Nc1nc2ccc(NC(=O)[C@@H]3CCC[C@H](NCc4ccc5ccccc5c4)C3)cc2s1)C1CCCC1 | TIMM0144 | 0.39 µM |
| C[C@@H](SC1COC(/C=C/C=C/c2ccc(C#N)cc2F)OC1)[C@](O)(Cn1cncn1)c1ccc(F)cc1F | CAL-0013 | 0.016 µg/mL |
| C[C@H]1[C@H](O)[C@@H](C)/C=C/C=C/C=C/C=C/C=C/C=C/C=C/[C@H](O[C@@H]2O[C@H](C)[C@@H](O)[C@H](N)[C@@H]2O)C[C@@H]2O[C@](O)(C[C@@H](O)C[C@@H](O)CC[C@H](O)[C@@H](O)C[C@@H](O)CC(=O)O[C@H]1C)C[C@H](O)[C@H]2C(=O)O | KB 83/005 (azole-resistant) | 0.13 µg/mL |
| c1ccc(C(Cn2ccnc2)OCc2cccc3ccccc23)cc1 | Y0109 | 128 µg/mL |
| Cc1ccc2oc(C(=O)c3ccc(Cl)cc3)c(C)c2c1 | NRRL Y-27077 | 50 µg/mL |
| CCCCCCCCOc1ccc(N2CCN(c3ccc(C(=O)N[C@H]4CCCNC(=O)C5C[C@H](N)CN5C(=O)C(C(C)O)NC(=O)[C@@H](OCc5ccccc5)NC(=O)C5C[C@@H](O)CN5C(=O)C(C(C)O)NC4=O)cc3)CC2)cc1 | ATCC CCH442 | >100 µg/mL |
| Clc1ccc(C(Cn2ccnc2)OCc2ccc(-c3ccccc3)cc2)c(Cl)c1 | CA6 | 128 µg/mL |
| CCCCCOc1ccc(-c2ccc(-c3ccc(C(=O)N[C@H]4CCCNC(=O)C5C[C@H](NCC(=O)O)CN5C(=O)C(C(C)O)NC(=O)C(CCc5ccc(O)cc5)NC(=O)C5C[C@@H](O)CN5C(=O)C(C(C)O)NC4=O)cc3)cc2)cc1 | ATCC 10231 | 0.39 µg/mL |
| CC(C)(C)c1ccc(COC(Cn2ccnc2)c2ccc(Cl)cc2Cl)cc1 | Y0109 | >128 µg/mL |
| CCCCCOc1ccc(-c2ccc(-c3ccc(C(=O)N[C@H]4CCCNC(=O)C5C[C@H](N)CN5C(=O)C(CCCN(CCN)CCN)NC(=O)C(CCc5ccc(O)cc5)NC(=O)C5C[C@@H](O)CN5C(=O)C(C(C)O)NC4=O)cc3)cc2)cc1 | ATCC CCH442 | 0.2 µg/mL |
| CCCCNC(=O)N[C@@H](Cc1ccc(OC)cc1)C(=O)N[C@H]1[C@@H](O)[C@H](n2cnc3c(N)ncnc32)O[C@@H]1C(=O)NCCCC | FP633 | >100 µg/mL |
| CCCCCCCCCCCCCCCC(=O)N[C@H]1CCCNC(=O)C2C[C@H](N)CN2C(=O)C(C(C)O)NC(=O)C(CCc2ccc(O)cc2)NC(=O)C2C[C@@H](O)CN2C(=O)C(C(C)O)NC1=O | ATCC CCH442 | 0.39 µg/mL |
| CC[C@@H]([C@H](C)O)n1ncn(-c2ccc(N3CCN(c4ccc(OC[C@@H]5CO[C@@](Cn6cncn6)(c6ccc(F)cc6F)C5)cc4)CC3)cc2)c1=O | Isolate CA-1 | >4 µg/mL |

Again, the opening 3 rows:

compound	strain or isolate	value
CCC(C)n1ncn(-c2ccc(N3CCN(c4ccc(OC[C@H]5CO[C@](Cn6cncn6)(c6ccc(Cl)cc6Cl)O5)cc4)CC3)cc2)c1=O	Isolate CA-7	>8 µg/mL
COc1ccc2c(Cc3ccc(C(C)(C)C)cc3)c3[n+](cc2c1OC)CCc1cc2c(cc1-3)OCO2	ATCC62342	3.13 µg/mL
Nc1ncnc2c1ncn2[C@@H]1O[C@H](C(=O)O)[C@@H](NC(=O)C(N)Cc2cccs2)[C@H]1O	FP633	1.6 µg/mL